Data as given in PubChem BioAssay AID504761 (Drosophila RNAi Screening Center, 2011).
The deposit covers about 22,000 reagents; shown is a random part of those that have a named target and a result. Over the whole deposit, 116 (0.52%) were called active. 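Calls depend on retest data that are not deposited; infection was ranked per plate without normalising between plates; the unit of the infection score is not given.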 Raw values are not corrected between plates. A number with no mark means an inactive call. Reagents against one gene are numbered here. Not stated in the record: the amount of reagent, the time to read-out.

Test: 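Insect host genes that dengue virus relies on to spread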 (primary screen)
Cells: D.Mel-2 cells from Drosophila
Reagents: long dsRNA against Drosophila genes
Conditions: infection with dengue virus type 2; dose and infection time not stated
Read-out: 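Per well on two replicate plates, imaging gave the percent of cells positive for viral envelope protein, ranked by infection, and a nuclear count of cells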
Scale: infection score: higher = more virus-infected cells; cell count: higher = more cells in the well
Call rule: 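Low infection ranks in the two replicates (chance level up to 0.065) followed by a retest with a 1.5-fold or larger significant decrease, p below 0.05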
Calls: active = confirmed: knock-down lowers infection; inactive = not picked or not confirmed

Target gene,reagent no.,"infection score, replicate 1","infection score, replicate 2","cell count, replicate 1","cell count, replicate 2"
Pde8,1,10.6,13.9,7223,5931
Pde8,2,16.3,32.4,6261,5403
nkd,1,5.24,4.05,6756,6665
nkd,2,15,14.5,6085,6913
scro,1,,1.56,283,641
Trap1,1,7.99,26.9,6658,5863
CG4860,1,7.53,8.64,6557,6235
CG4860,2,1.87,1.07,6311,6371
Cht7,1,3.86,7.45,6427,5516
Cht7,2,3.07,1.88,6282,6345
CG9135,1,3.89,4.96,6173,6048
CycG,1,1.15,1.76,6454,6465
CycG,2,2.9,30.5,6735,6413
CG8004,1,3.15,2.87,6062,6644
CG8004,2,9.6,0.75,5769,5984
beat-Va,1,5.24,5.26,5724,6526
Pvf3,1,,,548,527
Pvf3,2,5.01,9.44,1797,2584
Pvf3,3,15.2,3.18,5930,1037
Pvf3,4,12.5,10.3,6057,1719
Pvf3,5,6.43,5.77,6172,6433
Pvf3,6,14.6,7.32,1577,1229
Poxn,1,0.67,0.8,6315,6087
Poxn,2,4.86,5.51,6891,6783
Poxn,3,7.38,10.6,6264,6191
CG13229,1,7.13,3.39,7084,6068
Elba2,1,3.94,26.8,6197,4003
Elba2,2,14.2,12.8,4806,5687
l(2)37Cb,1,9.45,15.9,4668,5030
l(2)37Cb,2,6.17,3.89,4392,4860
Crtp,1,8.44,3.01,6383,6905
Crtp,2,5.7,3.09,6314,6671
kkv,1,7.36,6.66,6798,6483
ninaC,1,13.8,1.66,6145,6392
ninaC,2,11,10.2,5301,5854
Ald2,1,5.85,7.88,5449,3517
Ald2,2,2.76,3.56,5983,5837
CG17097,1,12.6,4.82,5752,5972
CG17097,2,6.1,4.83,5936,5217
htk,1,4.16,4.4,4232,3640
htk,2,11.5,1.09,6383,6819
htk,3,7.62,10.6,6167,7035
Hsp67Bc,1,2.71,1.93,6318,5491
Hsp67Bc,2,27.9,24,6006,6829
Gr66a,1,0.13 (active),0.38,6098,6105
Jon66Ci,1,0.71,1.48,6220,6138
Jon66Ci,2,2.68,4.48,6452,5873
CG11293 (retired record),1,8.48,10.7,6426,7111
CG15499 (retired record),1,6.98,1.95,6322,6370
CheA87a,1,1.38,33.7,6594,5936
Art4,1,1.3,4.97,6703,6500
ldd,1,4.56,0.08,5766,6407
ldd,2,2.79,6.58,6947,6486
Sp7,1,13,4.97,6423,6183
pio,1,26.1,21.2,6129,6017
pio,2,9.73,11.1,5281,4372
CCAP,1,4.28,4.97,5729,6418
CAH5,1,9.67,1.07,5337,6993
CG11703,1,8.63,4.54,6374,6359
CG11703,2,3.03,1.08,6329,5855
mats,1,1.84,1.76,5702,5343
mats,2,6.17,5.03,6366,6702
kipf,1,10.1,12.3,5744,5394
kipf,2,3.04,3.12,5895,6897
kipf,3,45.2,25.2,4164,5387
CG12992,1,4.33,8.25,7231,6933
CG2269,1,6.45,7.34,6095,6498
Ir64a,1,3.63,3.37,6342,6142
Ir64a,2,14.8,3.17,5922,5451
CG33080,1,6.63,6.43,6186,6902
CG33080,2,7,4.76,6414,6364
CG33080,3,1.42,2.18,6711,6878
CG33080,4,2.66,1.95,6435,6656
CG13449,1,2.47,1.46,5536,5832
